B1: Mannanase: Wild type β-1,4-mannanase of Bacillus subtilis WY34 (protein)
chain: MRRLFAIVLGAVLALLAVPALAQGASVASDGFSVQDGRIYDANGNRFVPVGVNHAHAWYPSQTQSFADIRAAGANTVRVVLSGGRYGTSSAADVSAVVERCKQNQLVCILENHDTTGYGEDGSARSLASAAQYWTSIASVLRGQERYVMINIGNEPFGNSGFQSWTTDTIAAIRTLRAAGLDHTLVVDAPNWGQDWSFTMRDNAPTVAAADGNVVFSVHMYGVFDTGAEVRAYLDSFTSRGLPIMVGEFGDNHSDGNPDEATIMSYTRSQGIGMLGWSWSGNGGGVEYLDMVNGFSASSLTPWGQRFVHGADGLRARNAPAASVYGGDGGDGDGGAGTAPNGYPYCASASSDPDGDGWGWESSASCVVRGSSADTGSGGGSGSGSTAPNGYPYCASASSDPDGDGWGWESSASCVVRGSSADR
modifications: cellulosimicrobium
notes: Wild type β-1,4-mannanase of Bacillus subtilis WY34
B2: rManH: Recombinant GH5 β-1,4-mannanase of Cellulosimicrobium sp. HY-13 produced in E. coli; SEQ. ID. NO: 1; approximately 44 kDa (protein)
chain: B1 chain
modifications: cellulosimicrobium
notes: Recombinant GH5 β-1,4-mannanase of Cellulosimicrobium sp; HY-13 produced in E. coli; ID; NO: 1; approximately 44 kDa

Experiment: Optimum reaction temperature and pH of the mannanase
Type: biochemical
Details: maximum degrading activity with locust bean gum

Molecule	Opt. temp. [°C]
B1	50
B2	50

Reference: patent publication US9307782B2, “Mannanase produced from Cellulosimicrobium sp. strain HY-13” (Korea Research Institute of Bioscience and Biotechnology, priority 2011, dated 2016)
